Pooled drug test results. Numbers come from NIAID ChemDB, via PubChem.

Common to all: whole-cell or culture tests; organism: HIV-1; cell line: MT-4; endpoint: EC50

Blank or dashed fields: not listed here.

smiles	strain or isolate	changes	read by	value
O=C1CSC(c2c(F)cccc2F)N1c1cccc(Br)c1	IIIB		cytopathic effect	1.32 µM
CCc1c(Cc2ccccc2C)n(COC/C(Br)=C(\Br)c2ccccc2)c(=O)[nH]c1=O	IIIB	EFV-resistant (K103R V179D P225H)	MTT	>26 µM
NC1=NS(=O)(=O)N(Cc2ccccc2)c2c1ncn2[C@H]1CS[C@@H](CO)O1	RF			>100 µg/mL
O=C1CSC(c2c(F)cccc2F)N1c1ccccc1	IIIB		cytopathic effect	0.4 µM
CCOC(=O)c1ccc(-c2ccc(N=Nc3c(N)nc(=O)n(C)c3-c3ccc(C(=O)OCC)cc3)cc2)cc1	IIIB		MTT	>28.24 µM
NC(=O)c1[nH]c2ccc(Cl)cc2c1S(=O)(=O)c1ccccc1			p24	<0.001 µM
COC(O)[C@@H]1OC12[C@@H](CO[Si](C)(C)C(C)(C)C)O[C@@H](n1cc(C)c(=O)[nH]c1=O)[C@@H]2O[Si](C)(C)C(C)(C)C	IIIB		cytopathic effect / trypan blue	>10 µM
CCOC1CSc2nc(Cc3ccccc3)c(CC)c(=O)n21	IIIB		cytopathic effect / MTT	>100 µM
O=C1CSC(c2c(Cl)cccc2Cl)N1c1cccc(Cl)c1	IIIB		cytopathic effect	0.31 µM
CCc1c(Cc2cc(C)cc(C)c2)nc2n(c1=O)C(OCCO)CS2	IIIB		cytopathic effect / MTT	>100 µM
C=C(C)[C@@H]1CC[C@]2(C(=O)NCCCCCCCC(=O)N[C@@H](CC(C)C)[C@@H](O)CC(=O)O)CC[C@]3(C)[C@H](CC[C@@H]4[C@@]5(C)CC[C@H](O)C(C)(C)[C@@H]5CC[C@]43C)[C@@H]12	2750 M		cytopathic effect / MTT	0.14 µM
Cn1c(N2CCOCC2)c(N=Nc2ccc(Cl)cc2)c(N)nc1=O	IIIB		MTT	>12.22 µM
Cc1cccc(N2C(=O)CSC2c2c(F)cccc2F)c1	IIIB		cytopathic effect	0.688 µM
CCc1c(Cc2ccccc2C)n(COCC#Cc2ccc(NC(=O)CBr)cc2)c(=O)[nH]c1=O	IIIB	K103N + Y181C	MTT	>41 µM
CCOC(=O)c1c([N+](=O)[O-])c(-c2ccccc2)n(COCCO)c1-c1ccccc1			cytopathic effect / MTT	>163 µM
CCN(CC)c1c(N=Nc2ccc(Cl)cc2)c(N)nc(=O)n1C	IIIB		MTT	>100 µM
N#Cc1c(N)c(-c2ccccc2)n(COCCO)c1-c1ccccc1			cytopathic effect / MTT	>300 µM
NC1=NS(=O)(=O)N(Cc2ccccc2)c2ncn([C@@H]3CS[C@@H](CO)O3)c21	RF			>100 µg/mL
COc1cccc(N2C(=O)CSC2c2c(F)cccc2Cl)c1	IIIB		cytopathic effect	3.29 µM
Cc1cn([C@@H]2O[C@H](CO[Si](C)(C)C(C)(C)C)C3(O[C@H]3C(=O)NN)[C@H]2O[Si](C)(C)C(C)(C)C)c(=O)[nH]c1=O	IIIB		cytopathic effect / trypan blue	>10 µM
CCCCCCNc1c(N=Nc2ccc(-c3ccc(F)cc3)cc2)c(N)nc(=O)n1C	IIIB		MTT	>11.66 µM
NC1=NS(=O)(=O)N(Cc2ccccc2)c2c1ncn2[C@@H]1CS[C@@H](CO)O1	RF			>100 µg/mL
CCc1c(Cc2cc(C)cc(C)c2)n(COCC#Cc2cccc(CO)c2)c(=O)[nH]c1=O	IIIB	Y181C	MTT	1.6 µM
CC(=O)OCCOCn1c(-c2ccccc2)c(Br)c(Br)c1-c1ccccc1			cytopathic effect / MTT	>23 µM
Nc1ccn([C@H]2CC[C@@H](CO)O2)c(=O)n1	IIIB		MTT	0.697 µg/mL
Cc1cccc(N2C(=O)CSC2c2c(Cl)cccc2Cl)c1	IIIB		cytopathic effect	0.08 µM
CC(C)=CCC[C@]1(C)C=Cc2c(ccc3c2C(=O)C(O)=C(C2=C(C4=C(O)C(=O)c5c(ccc6c5C=C[C@@](C)(CCC=C(C)C)O6)C4=O)C(=O)c4c(ccc5c4C=C[C@@](C)(CCC=C(C)C)O5)C2=O)C3=O)O1	RF		syncytia	0.008 µM
CCCNc1c(N=Nc2ccc(-c3ccc(OC)c(OC)c3)cc2)c(N)nc(=O)n1C	IIIB		MTT	>36.76 µM
O=C1C=CN([C@H]2CS[C@@H](CO)O2)S(=O)(=O)N1	RF			>100 µg/mL
CC(C)(C)[Si](C)(C)O[C@H]1[C@H](n2ccc(=O)[nH]c2=O)O[C@H](CO)C1(O)C(N=[N+]=[N-])C(N)=O	IIIB		cytopathic effect / trypan blue	≥250 µM
CCc1c(Cc2cc(C)cc(C)c2)n(COCc2cn(-c3cccnc3)nn2)c(=O)[nH]c1=O	IIIB	EFV-resistant (K103R V179D P225H)	MTT	62 µM
COC(=O)[C@@H]1O[C@]12[C@@H](CO[Si](C)(C)C(C)(C)C)O[C@@H](n1ccc(=O)[nH]c1=O)[C@@H]2O[Si](C)(C)C(C)(C)C	IIIB		cytopathic effect / trypan blue	>10 µM
Cn1c(-c2ccc(F)cc2)c(N=Nc2ccc(-c3ccc(F)cc3)cc2)c(N)nc1=O	IIIB		MTT	>66.6 µM
Cc1cn(CCCCO[C@@H]2O[C@H](CO)[C@@H](N=[N+]=[N-])[C@H]2O)c(=O)[nH]c1=O	IIIB		cytopathic effect	>200 µg/mL
CCc1cccc(N2C(=O)CSC2c2c(Cl)cccc2Cl)c1	IIIB		cytopathic effect	0.156 µM
C=CCNc1c(N=Nc2ccc(Cl)cc2)c(N)nc(=O)n1C	IIIB		MTT	>14.23 µM
CCc1c(Cc2ccccc2)n2c(nc1=O)SCC2OCCO	IIIB		cytopathic effect / MTT	>100 µM
COC(=O)/C=C1/[C@@H](O[Si](C)(C)C(C)(C)C)[C@H](n2cc(C)c(=O)[nH]c2=O)O[C@@H]1CO[Si](C)(C)C(C)(C)C	IIIB		cytopathic effect / trypan blue	>2 µM
CC(C)CN(C[C@@H](O)[C@H](Cc1ccccc1)NC(=O)O[C@H]1CO[C@H]2OCC[C@H]21)S(=O)(=O)c1ccc2onc(CNC(C)C)c2c1	HXB2 Recombinant		cytopathic effect / MTT	0.0032 µM
COC(=O)[C@H](C)NC(O)(Oc1ccccc1)Oc1nc(N(C)C)nc(C(C)c2c(F)cccc2F)c1C		Y181C resistant	MTT	1.2 µM
NC1=NS(=O)(=O)N([C@@H]2CS[C@@H](CO)O2)C=C1	RF			>100 µg/mL
CC(C)c1c(Cc2ccccc2)n2c(nc1=O)SCC2OCCO	IIIB		cytopathic effect / MTT	>100 µM
O=C1CSC(c2c(F)cccc2Cl)N1c1cccc(Br)c1	IIIB		cytopathic effect	0.646 µM
CC(=O)OCCOCn1c(-c2ccccc2)c(N)c(C#N)c1-c1ccccc1			cytopathic effect / MTT	>300 µM
Cc1ccc(Nc2nc(N)nc(Cc3c(Cl)cccc3Cl)c2C)cc1			cytopathic effect / MTT	0.004 µM
Cc1cc(C)cc(S(=O)(=O)c2c(C(N)=O)[nH]c3c(Cl)cc(Cl)cc23)c1	IIIB		cytopathic effect / MTT	1.6 µM
Cn1c(N2CCNCC2)c(N=Nc2ccc(Cl)cc2)c(N)nc1=O	IIIB		MTT	>3.03 µM
Cc1cc(C)cc(S(=O)(=O)c2c(C(=O)/C=C/C(N)=O)[nH]c3ccc(Cl)cc23)c1		RT-K103N Y181C	cytopathic effect / MTT	>100 µM
Cc1noc2ccc(S(=O)(=O)N(CC(C)C)C[C@@H](O)[C@H](Cc3ccccc3)NC(=O)O[C@H]3CO[C@H]4OCC[C@H]43)cc12	HXB2 Recombinant		cytopathic effect / MTT	0.0018 µM

Again, the opening 7 rows:

smiles	strain or isolate	changes	read by	value
O=C1CSC(c2c(F)cccc2F)N1c1cccc(Br)c1	IIIB		cytopathic effect	1.32 µM
CCc1c(Cc2ccccc2C)n(COC/C(Br)=C(\Br)c2ccccc2)c(=O)[nH]c1=O	IIIB	EFV-resistant (K103R V179D P225H)	MTT	>26 µM
NC1=NS(=O)(=O)N(Cc2ccccc2)c2c1ncn2[C@H]1CS[C@@H](CO)O1	RF			>100 µg/mL
O=C1CSC(c2c(F)cccc2F)N1c1ccccc1	IIIB		cytopathic effect	0.4 µM
CCOC(=O)c1ccc(-c2ccc(N=Nc3c(N)nc(=O)n(C)c3-c3ccc(C(=O)OCC)cc3)cc2)cc1	IIIB		MTT	>28.24 µM
NC(=O)c1[nH]c2ccc(Cl)cc2c1S(=O)(=O)c1ccccc1			p24	<0.001 µM
COC(O)[C@@H]1OC12[C@@H](CO[Si](C)(C)C(C)(C)C)O[C@@H](n1cc(C)c(=O)[nH]c1=O)[C@@H]2O[Si](C)(C)C(C)(C)C	IIIB		cytopathic effect / trypan blue	>10 µM

Neighbouring rows are from separate reports. ECn is the concentration giving n% inhibition of infection, replication or growth.